Source: patent US10093713B2 (priority 2013, dated 2018)

Test: general procedure: Fmoc solid-phase peptide synthesis; TentaGel S Ram S resin
Conditions: whole synthesis

H-Y-Aib-EGTFTSDYSIYLDK-K([17-carboxy-heptadecanoyl]-isoGlu-Peg3-Peg3)-AQRAFVEWLLAQGPSSGAPPPS-NH2
final HPLC purity (HPLC and MS): 91% | crude purity (method not given) (analytical HPLC and MS): 45%
